Measurements taken from PubChem BioAssay AID1626 (SRMLSC, 2009).

System: M. tuberculosis H37Rv growth inhibition
Assay: M. tuberculosis H37Rv growth inhibitors, H37Rv strain (AID 1626)
Details: for IC90: measured here: IC90 against H37Rv

Row | Compound | IC90 | CC50 (measured here: Vero cell cytotoxicity)
1 | O=[N+]([O-])c1cc([N+](=O)[O-])c(Nc2ccccn2)c([N+](=O)[O-])c1 | 4.59 µM | 20.6 µM
2 | CCCCCOc1ccc(NP(C)(=O)Oc2ccc(Cl)cc2Cl)cc1 (stereo not drawn) | > 100 µM | 
